# Screening data, single-dose tests

From ChEMBL document CHEMBL3988442, “University of Dundee, Small-Polar-MMV Screening Library” (2021).

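Growth of Mycobacterium tuberculosis over 3 days (7H9 medium with glucose and tyloxapol); the read-out is not stated. Compounds at 500 µM. The record gives no direction; compounds that gave an IC50 in retests scored well above the rest, so higher reads as more growth inhibition. About 18,000 compounds were tested under these conditions; 7.9% (about 1,400) showed 50% or more at least once.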

The filed quantity is “Percent Effect” (%). The record does not define 0% and 100%; most values in the screen are far below 50% and negative numbers occur (in some assays of this library far below -100). The entries come from a sample that favours strong results.

Compound	percent effect
COCCN1CCCN(C(=O)c2ccccc2Cl)CC1	21.29
COCCN(CC(N)=O)S(=O)(=O)c1cc(F)ccc1C	13.94
Cc1nnc(SCc2ccc(F)cc2Cl)n1CC(N)=O	0.6658
CCC1(CC)CCCN(C(=O)CS(=O)(=O)CC)CC1	91.53
COCCC(=O)N1CCC(Nc2ncccc2Br)CC1	67.3
CC(C)(N)CN1CCCOCC1	5.815
COc1ccc(OC)c(CNC(=O)C(C)NC(N)=O)c1 (stereo not given)	-14.16
CCN(CCc1ccccc1)C(=O)CN1CSCC1=O	31.29
O=C(NCC(O)c1cccs1)NC1CCOCC1 (stereo not given)	-5.047
Cc1cccc(C(=O)NCC2(O)CCC2)c1O	21
CCN1CCN(Cc2nc(C3CCOC3)no2)CC1 (stereo not given)	-3.829
Cc1nn(CCO)c(NCc2cccc(F)c2)c1C	50.58
Cc1ccc(NC(=O)C2=NN(C)C(=O)CC2)cc1Cl	-3.173
CN(Cc1cccnc1)C(=O)c1cc(Cl)c[nH]1	57.22
COc1ccccc1C(=O)N1CC[C@H](N)C1	0.3489
COc1c(N)c(C)nn1C	13.86
CC(N)c1ccc(NC(=O)c2ccncc2)cc1 (stereo not given)	23.33
COc1cccc(Nc2nccc(=O)[nH]2)c1	3.264
COc1ccc(-c2noc(Cn3cncn3)n2)cn1	9.331
O=C(c1ccccc1)N1CCN(Cc2ccco2)CC1	26.16
N#Cc1ccc(CCO)cc1	14.92
CC(C)(O)CN1CCN(C(=O)CN2CSCC2=O)CC1	-2.112
CCOc1ccc2c(c1)cc(C(=O)NCCOC)n2C	1.374
Cc1cc(CC(C)NC(=O)CCn2nnnc2C)[nH]n1 (stereo not given)	6.723
CC(OC(=O)Cn1cnc2ccccc2c1=O)C(N)=O (stereo not given)	-10.41
CCN1CCC(CCN)CC1	6.845
CC(C(N)=O)S(=O)(=O)Cc1ccc(Br)s1 (stereo not given)	26.11
Cc1n[nH]cc1CNC(C)CO (stereo not given)	-2.67
CCN(CC)S(=O)(=O)c1ccc(CCC(=O)NC)cc1	31.51
Cc1noc(-c2ccc(CN)cc2)n1	39.56
CC(C)C(=O)NC1CCN(C(=O)c2ccccc2)CC1	-12.84
CCC1(NC(=O)c2coc(S(=O)(=O)N(C)C)c2)CCC1	67.83
CN(CC(N)=O)Cc1ccc(S(=O)(=O)N2CCCC2)o1	31.93
CCC1CN(S(=O)(=O)N2CCCCC2)CCO1 (stereo not given)	40.83
COc1ccc(S(=O)(=O)N(C)C)cc1NCC1CC1	56.66
Cc1noc(CN)n1	13.93
CNS(=O)(=O)c1ccc(C(=O)Nc2ccc(F)cc2)o1	54.61
COc1cc(C(=O)CCN(C)C)cc(OC)c1OC	104.9
CN1CCCN(C(=O)NCCCNS(C)(=O)=O)CC1	1.2
NCC(c1cccs1)N1CCCC1 (stereo not given)	56.3
CNCc1nncn1C	-3.679
c1ccc(-c2noc(CN3CCNCC3)n2)cc1	24.43
CCN1C(=O)CC(NCc2ccc3c(c2)OCO3)C1=O (stereo not given)	12.73
CC(=O)c1cc(CN(C)CC2CC(=O)N(C)C2)n(C)c1 (stereo not given)	-6.585
CSCCC(CO)NC(=O)c1occc1C(C)C (stereo not given)	60.31
COCCOc1ccc(CNC(=O)c2ccoc2)cn1	24.79
COCc1nn(CC(=O)N(C)C2CCCCC2)c(=O)o1	43.55
COc1ccc(CSc2nnc(O)[nH]2)cc1Cl	26.76
Cc1noc(C)c1CN1CCNC(=O)C1c1cccs1 (stereo not given)	16.56
Cc1csc(NC(=O)CNC(=O)c2cccs2)n1	62.14
COc1cccc(OC)c1CN	34.29
COC(=O)C1CN(Cc2ccncc2Cl)CCO1 (stereo not given)	-3.229
O=C(Cn1ccnn1)Nc1ccncc1F	-3.813
CN1CCCN(C(=O)COc2ccc(F)cc2Cl)CC1	7.508
Cc1cccc(N(CCC(N)=O)C(=O)C2CCC2)c1	34.59
NC(=O)c1ccc(NCC(=O)N2CCOCC2)cc1Cl	2.719
CC(c1cc(F)ccc1F)N(C)C(=O)CCCN (stereo not given)	-0.6615
CNC(=O)CCc1cnn(-c2ccccc2)c1	24.57
COCCC(=O)c1ccc(F)cc1	-4.923
NCCCSc1ccccn1	7.215
Cc1cccc(NC(=O)N(C)CCS(C)(=O)=O)c1Cl	9.695
O=C(NCC1(Cn2ccnc2)CC1)C1CCOC1 (stereo not given)	12.58
CC1CCCN(S(=O)(=O)N(C)Cc2ccco2)C1 (stereo not given)	54.19
CC(C)NC(=O)c1ccc(N2CCCCC2=O)cc1	80.65
CS(=O)(=O)NC1CCCN(Cc2nnnn2C2CC2)C1 (stereo not given)	16.1
CSc1ccccc1NCC(=O)NC1CC1	28.24
NC(=O)CCSCc1ccn(-c2ccccc2)n1	71.02
CC1(C(=O)NCCN2CCCCC2)CCCCC(=O)N1 (stereo not given)	13.72
CCC(N)c1ccccc1OC (stereo not given)	50.19
COCCN(CCC#N)Cc1nc2ccccc2n1C	24.64
CN(Cc1ccccc1O)C(=O)C1CCOCC1	17.17
COc1ccc2c(c1)CCC(N)C2 (stereo not given)	21.8
CCC(C)(C)NCC(=O)Nc1cccc(C(=O)NC)c1	5.544
CCn1cc(CNC(=O)c2cccnc2SC)c(C)n1	22.29
CC(=O)NCCc1nc(-c2ccc(C)nn2)no1	-1.222
CN(C)C(=O)N1CCN(c2cccc(F)c2C#N)CC1	0.8101
Cc1noc(OCC(=O)N(C)Cc2ccc(F)cc2)n1	13.23
COCCN1CCN(CCS(=O)(=O)C(F)(F)F)CC1	103
NCCNS(=O)(=O)c1cccc2nsnc12	19.65
CNCc1nc(C(F)(F)F)no1	54.64

Repeated from the top, 7 entries:

- COCCN1CCCN(C(=O)c2ccccc2Cl)CC1 : 21.29%
- COCCN(CC(N)=O)S(=O)(=O)c1cc(F)ccc1C : 13.94%
- Cc1nnc(SCc2ccc(F)cc2Cl)n1CC(N)=O : 0.6658%
- CCC1(CC)CCCN(C(=O)CS(=O)(=O)CC)CC1 : 91.53%
- COCCC(=O)N1CCC(Nc2ncccc2Br)CC1 : 67.3%
- CC(C)(N)CN1CCCOCC1 : 5.815%
- COc1ccc(OC)c(CNC(=O)C(C)NC(N)=O)c1 (stereo not given) : -14.16%